Laboratory results taken from PMC5786798, “Discovery of New Inhibitors of Toxoplasma gondii via the Pathogen Box” (Antimicrobial Agents and Chemotherapy, 2018).
“And” between values parts separate entries of the source, which are not always exact repeats. Equal values may be shown once.

System: T. gondii tachyzoites (RH strain, type I)
Test: Determination of IC50s, in vitro chemosensitivity of T. gondii (ELISA, 72 h)
Settings: CC50 Vero cells/IC50 T. gondii ratio

Row | SMILES | SI
1 | CCc1nc(N)nc(N)c1-c1ccc(Cl)cc1 [PYR, pyrimethamine, reference compound] | 9.0
2 | O=C(Nc1ccc(N2CCNCC2)cc1)c1ccn2ncc(-c3cccc(Cl)c3)c2n1 [MMV022478] | > 4 and 7.7
3 | CNC(=O)c1nn(C)c2c1C(C)(C)Cc1cnc(Nc3ccc(N4CCN(C)CC4)cc3)nc1-2 [MMV676602] | > 4 and 4.1
4 | O=C(Nc1nc(-c2ccccn2)cs1)c1cncn1-c1ccccc1 [MMV676512] | > 4 and 4.2
